Anti-infective test results gathered from many reports (values: NIAID ChemDB through PubChem).

All rows: tests in culture

An empty or dashed field is not shown. Conditions beyond the fields shown may differ between rows. Inhibition is in % at the dose shown (toxicity tests: loss of growth or viability). ECn is the concentration giving n% inhibition of infection, replication or growth. a–b is a range or a potency band. A number after MIC or MFC names an inhibition level or a share of isolates.

structure | species | strain | read by | setting | measure | tested at | value
CCc1cn2c(nc1=O)O[C@@H]1[C@H](F)[C@H]2O[C@@H]1CO | Mycobacterium bovis BCG |  | resazurin |  | MIC25 |  | 100 µg/mL
CC[C@H]1OC(=O)[C@H](C)[C@@H](O[C@H]2C[C@@](C)(OC)[C@@H](O)[C@H](C)O2)[C@H](C)[C@@H](O[C@@H]2O[C@H](C)C[C@H](N(C)C)[C@H]2O)[C@](C)(OC)C[C@@H](C)C(=O)[C@H](C)[C@@H](O)[C@]1(C)O | Mycobacterium avium complex | N-966 (HIV+) |  |  | MIC |  | 2 µg/mL
COC(=O)/C=C/C(=O)c1ccc(C(C)(C)C)cc1 | Mycobacterium intracellulare |  |  |  | MIC |  | 4 µg/mL
O=c1oc2ccc(F)cc2c(=S)n1-c1cccc(Cl)c1 | Mycobacterium kansasii | My 235/80 |  | 14 d | MIC |  | 1 µM
Cc1cc(O)c(C=O)c2c1C(=O)Oc1c(CO)c(O)c3c(c1O2)C(O)OC3=O | Mycobacterium aurum |  |  |  | MIC |  | 250 µg/mL
CO[C@H]1/C=C/O[C@@]2(C)Oc3c(C)c(O)c4c(=O)c(c5oc6cc(N7CCN(CC(C)C)CC7)cc(=O)c6nc5c4c3=C2O)NC(=O)/C(C)=C\C=C\[C@H](C)[C@H](O)[C@@H](C)[C@@H](O)[C@@H](C)[C@H](OC(C)=O)[C@@H]1C | Mycobacterium ulcerans | Isolate 94-886 |  |  | MIC |  | 0.012 µg/mL
C[C@@H](O)[C@H]1C(=O)N2C(C(=O)O)=C(S[C@H]3CCCN3)S[C@H]12 | Mycobacterium abscessus | L948 | visual reading |  | MIC |  | 2 µg/mL
FC(F)(F)c1cc(-c2ccccc2)nc(N2N=C(/C=C/c3ccc(Cl)cc3)CC2c2ccc(Cl)cc2)n1 | Mycobacterium chelonae |  | resazurin |  | MIC |  | >20.6 µM
C=C(C)COc1ccc(-c2n[nH]c(C(F)(F)F)c2-c2ccccc2OC)c(O)c1 | Mycobacterium marinum |  | visual reading |  | MIC |  | 50 µg/mL
COc1c(N2CC[C@H](N)C2)c(F)cc2c(=O)[nH]c(=O)n(C3CC3)c12 | Mycobacterium smegmatis | D95Y mutant |  |  | MIC99 |  | 200 µg/mL
Cc1ccn2c(C(=O)NCc3ccc(OC(F)(F)F)cc3)c(C)nc2c1 | Mycobacterium ulcerans |  | fluorescence |  | MIC50 |  | 0.1–1 µg/mL
CCCCCC(C)NCCNC(C)CCCCC | Mycobacterium smegmatis | ATCC 607 |  |  | EC50 |  | <30 µg/mL
CSc1nc(N)c2c(n1)NC(c1ccc(C(F)(F)F)cc1)CC(c1ccc3c(c1)OCO3)=N2 | Mycobacterium szulgai | MNT1100 | MTT / broth dilution / absorbance | clinical isolate | MIC |  | >32 µg/mL
CCc1cc(C(N)=S)ccn1 | Mycobacterium avium complex | 56 strains | broth dilution |  | EC50 |  | <5 µg/mL
COc1ccc(C2=Nc3c(N)nc(N)nc3NC(c3ccc4c(c3)OCO4)C2)cc1 | Mycobacterium scrofulaceum | MNT1193 | MTT / broth dilution / absorbance | clinical isolate | MIC |  | >32 µg/mL
CC(C)NCCN(C)C(C)C | Mycobacterium smegmatis | ATCC 607 |  |  | inhibition | 1000 µg/mL | 0%
NNC(=O)c1ccncc1 | Mycobacterium avium complex | N-289 (HIV-) |  |  | MIC |  | 4 µg/mL
Cc1ccn2c(C(=O)NCc3ccc(-c4ccc(Cl)cc4)cc3)c(C)nc2c1 | Mycobacterium ulcerans |  | fluorescence |  | MIC50 |  | 0.001–0.01 µg/mL
COC(=O)c1cc(O)c(O)c(O)c1 | Mycobacterium aurum |  | broth dilution / resazurin |  | MIC |  | 250 µg/mL
O=c1[nH]c(=S)c(CO)cn1C1OC(CO)C(O)C1O | Mycobacterium bovis BCG |  | resazurin |  | MIC100 |  | 100 µg/mL
O=c1oc2ccc(Br)cc2c(=S)n1-c1cccc(Cl)c1 | Mycobacterium kansasii | 6509/96 |  | 21 d | MIC |  | 4 µM
CO[C@H]1/C=C/O[C@@]2(C)Oc3c(C)c(O)c4c(O)c(c(/C=N/N5CCN(C6CCCC6)CC5)c(O)c4c3C2=O)NC(=O)/C(C)=C\C=C\[C@H](C)[C@H](O)[C@@H](C)[C@@H](O)[C@@H](C)[C@H](OC(C)=O)[C@@H]1C | Mycobacterium avium intracellulare | 119 |  |  | MIC |  | 0.5 µg/mL
NCCS | Mycobacterium abscessus | Clinical isolate MR27419N | broth dilution / visual reading |  | MIC100 |  | 125 µg/mL
CO[C@H]1/C=C/O[C@@]2(C)Oc3c(C)c(O)c4c(O)c(c5c(c4c3C2=O)NC2(CCN(CC(C)C)CC2)N=5)=NC(=O)/C(C)=C\C=C\[C@H](C)[C@H](O)[C@@H](C)[C@@H](O)[C@@H](C)[C@H](OC(C)=O)[C@@H]1C | Mycobacterium avium complex | N-962 (HIV+) |  |  | MIC |  | 0.0625 µg/mL
C[C@@H](O)[C@H]1C(=O)N2C(C(=O)O)=C(SC3CN(C4=NCCS4)C3)S[C@H]12 | Mycobacterium abscessus | L948 | visual reading |  | MIC |  | 2 µg/mL
N=C(N)N1N=C(/C=C/c2ccc(Cl)cc2)CC1c1ccc(Cl)cc1 | Mycobacterium chelonae |  | resazurin |  | MIC |  | 1.74 µM
CC(C)N(C)CCN(C)C(C)C | Mycobacterium smegmatis | ATCC 607 |  |  | EC50 |  | >250 µg/mL
C[C@@H](O)[C@H]1C(=O)N2C(C(=O)O)=C(SCCN=CN)C[C@H]12 | Mycobacterium fortuitum | AO5 |  |  | MIC |  | 6.25 µg/mL
C[C@@H]1CN(c2c(F)c(N)c3c(=O)c(C(=O)O)cn(C4CC4)c3c2F)C[C@H](C)N1 | Mycobacterium intracellulare | ATCC 13950 | broth dilution / visual reading |  | MIC |  | 0.3 µg/mL
O=c1oc2ccc(F)cc2c(=S)n1-c1ccccc1 | Mycobacterium kansasii | My 235/80 |  | 14 d | MIC |  | 0.5 µM
O=C(O)c1cn(C2CC2)c2cc(N3C[C@@H]4CCCN[C@@H]4C3)c(F)cc2c1=O | Mycobacterium smegmatis | WT |  |  | MIC99 |  | 0.031 µg/mL
O=C(OCCNC(=O)c1c(Cl)nc2ccccn12)c1ccc(C(F)(F)F)cc1 | Mycobacterium ulcerans |  | fluorescence |  | MIC50 |  | >10 µg/mL
CO[C@H]1/C=C/O[C@@]2(C)Oc3c(C)c(O)c4c(=O)c(c5oc6cc(N7CCN(CC(C)C)CC7)cc(=O)c6nc5c4c3=C2O)NC(=O)/C(C)=C\C=C\[C@H](C)[C@H](O)[C@@H](C)[C@@H](O)[C@@H](C)[C@H](OC(C)=O)[C@@H]1C | Mycobacterium avium complex | N-265 (HIV-) |  |  | MIC |  | 0.0313 µg/mL
C=C1C(=O)O[C@@H](CCCCCCCCCCCCC)[C@@H]1C(=O)O | Mycobacterium aurum |  |  |  | MIC |  | 250 µg/mL
COc1ccc(-c2c(-c3ccc(OC)cc3O)n[nH]c2C(F)(F)F)cc1 | Mycobacterium marinum |  | visual reading |  | MIC |  | 50 µg/mL
CCCCCN(CCCCC)CCNC(C)C | Mycobacterium smegmatis | ATCC 607 |  |  | inhibition | 250 µg/mL | 100%
COc1ccc(-c2n[nH]c(C(F)(F)F)c2-c2ccccc2OC)c(O)c1 | Mycobacterium marinum |  | visual reading |  | MIC |  | 50 µg/mL
COc1c(N2CC[C@@H](CN)C2)c(F)cc2c(=O)n(N)c(=O)n(C3CC3)c12 | Mycobacterium smegmatis | G89C mutant |  |  | MIC99 |  | 2.5 µg/mL
CCCCCC(CC(=O)N1N=CCCC1C(=O)N[C@H]1COC(=O)C2CCC=NN2C(=O)[C@H](C)NC(=O)[C@@H](CC(C)C)NC1=O)C(=O)O | Mycobacterium aurum | SB66 |  |  | MIC |  | 12.5 µg/mL
CC(C)NCCCNC(C)C | Mycobacterium smegmatis | ATCC 607 |  |  | EC50 |  | >1000 µg/mL
CCc1cn(C2OC(CO)C(Br)C2F)c(=O)[nH]c1=O | Mycobacterium bovis BCG |  | resazurin |  | MIC70 |  | 50 µg/mL
CO[C@@]1(NC(=O)C2SC(=C(C(N)=O)C(=O)[O-])S2)C(=O)N2C(C(=O)[O-])=C(CSc3nnnn3C)CS[C@@H]21 | Mycobacterium fortuitum | 1261 |  |  | MIC |  | 25 µg/mL
COc1ccccc1-c1c(-c2ccc(OCC(=O)NN)cc2O)n[nH]c1C(F)(F)F | Mycobacterium marinum |  | visual reading |  | MIC |  | >50 µg/mL
CCC1OC(c2ccncc2)=NN1C(C)=O | Mycobacterium intracellulare |  | agar |  | MIC |  | >100 µg/mL
COc1ccc(-c2csc(N3N=C(c4cccs4)CC3c3ccc4c(c3)OCO4)n2)cc1 | Mycobacterium smegmatis | ATCC 607 |  |  | EC50 |  | >1000 µg/mL
CCCCCCCC1OC(c2ccncc2)=NN1C(C)=O | Mycobacterium intracellulare |  | agar |  | MIC |  | >100 µg/mL
Cc1ccc2oc(=S)n(-c3cccc(Cl)c3)c(=S)c2c1 | Mycobacterium kansasii | My 235/80 |  | 14 d | MIC |  | 2 µM
CO[C@@]1(NC(=O)C(C(=O)O)c2ccc(O)cc2)C(=O)N2C(C(=O)O)=C(CSc3nnnn3C)CO[C@@H]21 | Mycobacterium fortuitum | 1260 |  |  | MIC |  | 50 µg/mL
Nc1nc(N)c2c(n1)NC(c1ccc3c(c1)OCO3)CC(c1ccc(Cl)cc1)=N2 | Mycobacterium scrofulaceum | MNT1193 | MTT / broth dilution / absorbance | clinical isolate | MIC |  | 32 µg/mL
N[C@@H]1CONC1=O | Mycobacterium avium complex | 713 strains | agar |  | inhibition | 30 µg/mL | 26%
OCCCCCCCCN=C=S | Mycobacterium scrofulaceum |  | visual reading |  | MIC |  | 8 µg/mL
N=C(N)N1N=C(/C=C/c2ccccc2)CC1c1ccccc1 | Mycobacterium chelonae |  | resazurin |  | MIC |  | 4.3 µM
CO[C@@]1(NC(=O)Cc2ccccc2)C(=O)N2C(C(=O)O)=C(COC(C)=O)CSC21 | Mycobacterium fortuitum | 1004-8 |  |  | MIC |  | 50 µg/mL
COc1ncccc1Nc1cc2nc3ccccc3n(-c3ccc(OC(F)(F)F)cc3)c-2cc1=NC1CCC(OC)CC1 | Mycobacterium scrofulaceum |  | fluorescence |  | MIC90 |  | 1.49 µg/mL
CO[C@@]1(NC(=O)CSCC#N)C(=O)N2C(C(=O)O)=C(CSc3nnnn3C)CS[C@@H]21 | Mycobacterium fortuitum | 1030-8 |  |  | MIC |  | 6.25 µg/mL
S=c1oc2ccc(Br)cc2c(=S)n1-c1ccc(Cl)c(Cl)c1 | Mycobacterium kansasii | 6509/96 |  | 14 d | MIC |  | 2 µM
COc1c(N2CC[C@H](N)C2)c(F)cc2c(=O)n(N)c(=O)n(C3CC3)c12 | Mycobacterium smegmatis | WT |  |  | MIC99 |  | 12.5 µg/mL
CCc1cc(C(N)=S)ccn1 | Mycobacterium smegmatis | mc2651 |  |  | MIC |  | >80 µg/mL
Nc1ccc(S(=O)(=O)c2ccc(N)cc2)cc1 | Mycobacterium avium complex | DW1 |  |  | MIC |  | 32 µg/mL
Cc1c(OCC(F)(F)F)ccnc1CSc1nc2ccccc2[nH]1 | Mycobacterium bolletii | 1999-0888 | resazurin |  | MIC90 |  | >100 µM
CCC1CN(c2c(F)cc3c(=O)[nH]c(=O)n(C4CC4)c3c2OC)CCN1 | Mycobacterium smegmatis | A91V mutant |  |  | MIC99 |  | 200 µg/mL
Cc1ccc2ncc(C(=O)NCc3ccc(N4CCOCC4)cc3)n2c1 | Mycobacterium ulcerans |  | fluorescence |  | MIC50 |  | >10 µg/mL

A second listing of 5 rows from above:

{"structure": "CO[C@@]1(NC(=O)C(C(=O)O)c2ccc(O)cc2)C(=O)N2C(C(=O)O)=C(CSc3nnnn3C)CO[C@@H]21", "species": "Mycobacterium fortuitum", "strain": "1260", "measure": "MIC", "value": "50 µg/mL"}
{"structure": "O=c1oc2ccc(F)cc2c(=S)n1-c1ccccc1", "species": "Mycobacterium kansasii", "strain": "My 235/80", "setting": "14 d", "measure": "MIC", "value": "0.5 µM"}
{"structure": "C=C(C)COc1ccc(-c2n[nH]c(C(F)(F)F)c2-c2ccccc2OC)c(O)c1", "species": "Mycobacterium marinum", "read by": "visual reading", "measure": "MIC", "value": "50 µg/mL"}
{"structure": "CCCCCCCC1OC(c2ccncc2)=NN1C(C)=O", "species": "Mycobacterium intracellulare", "read by": "agar", "measure": "MIC", "value": ">100 µg/mL"}
{"structure": "COc1ccc(-c2n[nH]c(C(F)(F)F)c2-c2ccccc2OC)c(O)c1", "species": "Mycobacterium marinum", "read by": "visual reading", "measure": "MIC", "value": "50 µg/mL"}